Anti-infective test results gathered from many reports (values: NIAID ChemDB through PubChem).

All rows: enzyme or target tests; species: HIV-1; protein: Protease; measure: IC50

ICn: concentration for n% inhibition.

smiles	method	conditions	value
CC(=O)N[C@@H](Cc1ccccc1)C(=O)N[C@@H](CCC(=O)O)C(=O)N[C@@H](Cc1ccccc1)[C@H](O)[C@@H](O)[C@H](Cc1ccccc1)NC(=O)[C@@H](NC(=O)[C@H](Cc1c[nH]c2ccccc12)NC(C)=O)C(C)C	substrate cleavage		0.009 µM
CC(=O)ONc1ccc(S(=O)(=O)N(CC(C)C)C[C@@H](O)[C@H](Cc2ccccc2)NC(=O)CN2C(=O)c3ccccc3S2(=O)=O)cc1			0.02 µM
CC(C)C[C@H](NC(=O)[C@@H](NC(=O)CCCCCCCCCCCCCCC(=O)N[C@@H](CC(N)=O)C(=O)N[C@@H](Cc1ccccc1)C(=O)O)C(C)O)C(=O)N[C@@H](Cc1ccc(O)cc1)C(=O)O			>5.5 µM
CCOC(=O)c1cn(CC(O)CNc2cccc(C)c2)cc1-c1ccccc1			>200 µM
CC(C)c1ccccc1Sc1c(O)cc(-c2ccc(OCN3CCOCC3)cc2)oc1=O	HPLC	pH 4.7	0.547 µM
CC(C)C[C@H](NC(=O)[C@@H]1C[C@@H](O)CN1C(=O)CCCCCCCCCCCCCCC(=O)N[C@@H](CC(N)=O)C(=O)N[C@@H](Cc1ccccc1)C(=O)O)C(=O)N[C@@H](Cc1ccccc1)C(N)=O			>5.5 µM
CC(=O)N[C@@H](Cc1c[nH]c2ccccc12)C(=O)N[C@@H](CO)C(=O)N[C@@H](Cc1ccccc1)[C@H](O)[C@@H](O)[C@H](Cc1ccccc1)NC(=O)c1cc(=O)c2ccccc2[nH]1	substrate cleavage		4 µM
CC(C)(C)NC(=O)c1ccccc1NCC(O)Cn1c(C(=O)NC(C)(C)C)cc2ccccc21			57 µM
Oc1cc(O)cc(Oc2c(O)cc(O)c3c2Oc2c(O)cc(O)cc2O3)c1	HPLC		>100 µM
CC(C)C[C@H](NC(=O)[C@@H](NC(=O)CCCCCNC(=O)[C@H](Cc1ccccc1)NC(=O)[C@H](CCC(=O)O)NC(=O)[C@H](Cc1ccccc1)NC[C@H](Cc1ccccc1)NC(=O)OC(C)(C)C)[C@@H](C)O)C(=O)N[C@@H](CC(N)=O)C(=O)N[C@@H](Cc1ccccc1)C(=O)O	fluorescence	pH 5.0	0.021 µM
CC(C)c1ccc(C(C)C)c(Sc2c(O)cc(-c3ccc(OCc4cccnc4)cc3)oc2=O)c1	HPLC	pH 4.7	0.32 µM
CCC(=O)O[C@H]1c2cc3c(c(OC)c2-c2c(cc(OC)c(OC)c2O)C[C@@H](C)[C@H]1C)OCO3	HPLC		>100 µg/mL
CC(C)(C)OCC(=O)N[C@@H](Cc1ccccc1)[C@@H](O)[C@H](O)[C@H](Cc1ccccc1)NC(=O)[C@@H](NC(=O)COc1ccccc1)C1CCCS1	substrate cleavage		0.25 µM
CC(=O)ONc1ccc(S(=O)(=O)N(CC(C)C)C[C@@H](O)[C@H](Cc2ccccc2)NC(=O)Cc2c[nH]c3ccccc23)cc1			0.008 µM
CCOC(=O)c1cn(CC(O)CNc2ccccc2C(=O)OC)cc1-c1ccccc1			174 µM
CC(C)c1ccccc1Sc1c(O)cc(-c2ccc(OCc3ccccc3)cc2)oc1=O	HPLC	pH 4.7	0.2 µM
CC(=O)ONc1ccc(S(=O)(=O)N(Cc2ccccc2)C[C@@H](O)[C@H](Cc2ccccc2)NC(=O)Cc2c[nH]c3ccccc23)cc1			0.014 µM
CC1=CC[C@H]([C@@H](C)C2CC[C@@]3(C)C4=C(C=C5C=CC(=O)OC(C)(C)C5CC4)CC[C@]23C)OC1=O	HPLC		20 µg/mL
CC(C)C[C@H](NC(=O)[C@@H](NC(=O)CCCCCCCCCCCCCCC(=O)N[C@@H](CC(N)=O)C(=O)N[C@@H](Cc1ccccc1)C(=O)O)C(C)O)C(=O)N1Cc2ccccc2CC1C(=O)O			32.3 µM
CCOC(=O)COc1ccc(-c2cc(O)c(Sc3ccccc3C(C)C)c(=O)o2)cc1	HPLC	pH 4.7	0.067 µM
CCOC(=O)c1cn(CC(O)CNc2ccc(C)cc2)cc1-c1ccccc1			>200 µM
CC(C)CN(C[C@@H](O)[C@H](Cc1ccccc1)NC(=O)CCc1c[nH]c2ccccc12)S(=O)(=O)c1ccc(Br)cc1			0.024 µM
CC(C)c1ccccc1Sc1c(O)cc(-c2ccc(OCCCc3ccccc3)cc2)oc1=O	HPLC	pH 4.7	3.5 µM
Oc1cc(O)cc(Oc2c(O)cc(O)c3c2Oc2c(O)cc4oc5c(Oc6cc(O)cc(O)c6)c(O)cc(O)c5c4c2O3)c1	HPLC		>100 µM
CCCO[C@H]1[C@H](OCc2ccccc2)[C@@H](O)[C@H](Oc2ccccc2)O[C@@H]1CNC(=O)C(NC(C)=O)C(C)C			>100 µM
CC(C)(C)c1ccccc1Sc1c(O)cc(-c2ccc(OCc3cccnc3)cc2)oc1=O	HPLC	pH 6.2	0.32 µM
CO[C@H]1[C@H](OCc2ccccc2)[C@@H](O)[C@H](Oc2ccccc2)O[C@@H]1CNC(=O)[C@@H](NC(=O)OC(C)(C)C)C(C)C			>100 µM
CC(C)C[C@H](NC(=O)[C@@H](NC(=O)CCCCCCCCCCCCCCC(=O)N[C@@H](CC(N)=O)C(=O)N[C@@H](Cc1ccccc1)C(=O)O)C(C)O)C(=O)N[C@@H](Cc1cccc2ccccc12)C(N)=O			3.06 µM
CC(C)[C@H](NC(=O)c1cc(=O)c2ccccc2[nH]1)C(=O)N[C@@H](Cc1ccccc1)[C@H](O)[C@@H](O)[C@H](Cc1ccccc1)NC(=O)c1cc(=O)c2ccccc2[nH]1	substrate cleavage		4 µM
CCOC(=O)c1cn(CC(O)CSc2ccccc2C(=O)NC(C)(C)C)cc1-c1ccccc1			>200 µM
CC(C)CN(C[C@@H](O)[C@H](Cc1ccccc1)NC(=O)Cc1c[nH]c2ccccc12)S(=O)(=O)c1ccc(Br)cc1			0.016 µM
CC(=O)N[C@@H](Cc1ccccc1)C(=O)N[C@@H](CCC(=O)O)C(=O)N[C@@H](Cc1ccccc1)[C@@H](O)[C@H](O)[C@H](Cc1ccccc1)NC(=O)COC(C)(C)C	substrate cleavage		0.6 µM
CC(=O)N[C@H](C(=O)N[C@@H](CC(C)C)C(=O)N[C@@H](CC(N)=O)C(=O)N[C@@H](Cc1ccccc1)C(=O)O)[C@@H](C)O	fluorescence	pH 7.0	29.5 µM
CSCC[C@H](NC(=O)[C@@H](NC(=O)CCCCCCCCCCCCCCC(=O)N[C@@H](CC(N)=O)C(=O)N[C@@H](Cc1ccccc1)C(=O)O)C(C)O)C(=O)N[C@@H](Cc1ccccc1)C(N)=O			4.96 µM
CC(C)c1ccccc1Sc1c(O)cc(-c2ccc(OCCO)cc2)oc1=O	HPLC	pH 4.7	0.035 µM
CC[C@H](C)[C@H](NC(=O)[C@@H](NC(=O)[C@H](Cc1ccccc1)NC(C)=O)[C@@H](C)CC)[C@H](O)[C@@H](O)[C@H](CC1CCCCC1)NC(=O)[C@H](CCC(=O)O)NC(=O)[C@H](Cc1ccccc1)NC(C)=O	substrate cleavage		0.4 µM
CC(=O)ONc1ccc(S(=O)(=O)N(Cc2ccccc2)C[C@@H](O)[C@H](Cc2ccccc2)NC(=O)[C@H](CC(C)C)N2C(=O)c3ccccc3C2=O)cc1			0.06 µM

Again, the opening 4 rows:

smiles	method	conditions	value
CC(=O)N[C@@H](Cc1ccccc1)C(=O)N[C@@H](CCC(=O)O)C(=O)N[C@@H](Cc1ccccc1)[C@H](O)[C@@H](O)[C@H](Cc1ccccc1)NC(=O)[C@@H](NC(=O)[C@H](Cc1c[nH]c2ccccc12)NC(C)=O)C(C)C	substrate cleavage		0.009 µM
CC(=O)ONc1ccc(S(=O)(=O)N(CC(C)C)C[C@@H](O)[C@H](Cc2ccccc2)NC(=O)CN2C(=O)c3ccccc3S2(=O)=O)cc1			0.02 µM
CC(C)C[C@H](NC(=O)[C@@H](NC(=O)CCCCCCCCCCCCCCC(=O)N[C@@H](CC(N)=O)C(=O)N[C@@H](Cc1ccccc1)C(=O)O)C(C)O)C(=O)N[C@@H](Cc1ccc(O)cc1)C(=O)O			>5.5 µM
CCOC(=O)c1cn(CC(O)CNc2cccc(C)c2)cc1-c1ccccc1			>200 µM

Neighbouring rows are from separate reports. An empty or dashed field is not shown.